Anti-infective test results gathered from many reports (values: NIAID ChemDB through PubChem).

Common to all: growth or infection tests; species: Mycobacterium avium; endpoint: MIC50

Lines come from different laboratories, so protocols vary.

smiles | strain | read by | value
N/C(=N\NC(CC(=O)c1ccc(Cl)c(Cl)c1)c1ccccn1)c1ccccn1 | 17 strains | - | 16 µg/mL
Cc1c(F)c(N2CCNC(C)C2)cc2c1c(=O)c(C(=O)O)cn2C1CC1 | 18 strains | - | 6.25 µg/mL
CN1CCN(c2cc3c(cc2F)c(=O)c(C(=O)O)cn3C2CC2)CC1 | - | - | 2 µg/mL
CC1COc2c(N3CCN(C)CC3)c(F)cc3c(=O)c(C(=O)O)cn1c23 | 18 strains | - | 12.5 µg/mL
CCc1cn2c(nc1=O)O[C@@H]1[C@H](F)[C@H]2O[C@@H]1CO | ATCC 25291 | resazurin | 100 µg/mL
N/C(=N\NC(CC(=O)c1ccccc1)c1ccncc1)c1ccccn1 | 17 strains | - | 64 µg/mL
O=C(O)c1cn(C2CC2)c2c(Cl)c(N3C[C@@H]4CCCN[C@@H]4C3)c(F)cc2c1=O | 51 strains | - | 0.25 µg/mL
N/C(=N\NC(CC(=O)c1ccc(Cl)cc1)c1ccncc1)c1ccccn1 | 17 strains | - | 16 µg/mL
CC1COc2c(N3CCN(C)CC3)c(F)cc3c(=O)c(C(=O)O)cn1c23 | ATCC 15769 | - | 50 µg/mL
O[C@@H](c1cc(C(F)(F)F)nc2c(C(F)(F)F)cccc12)[C@@H]1CCCCN1 | MAC 101 | broth dilution / radiometric | 32 µg/mL
N/C(=N\NC(CC(=O)c1ccc(-c2ccccc2)cc1)c1ccncc1)c1ccccn1 | 17 strains | - | 32 µg/mL
C=CCS/C(N)=N\N=C\c1ccc(F)cc1 | Clinical isolates | - | 6.25 µg/mL
CC1COc2c(N3CCN(C)CC3)c(F)cc3c(=O)c(C(=O)O)cn1c23 | 18 strains | - | 12.5 µg/mL
CC[C@H]1OC(=O)[C@H](C)[C@@H](O[C@H]2C[C@@](C)(OC)[C@@H](O)[C@H](C)O2)[C@H](C)[C@@H](O[C@@H]2O[C@H](C)C[C@H](N(C)C)[C@H]2O)[C@](C)(OC)C[C@@H](C)C(=O)[C@H](C)[C@@H](O)[C@]1(C)O | MAC 101 | broth dilution / radiometric | 2 µg/mL
Cc1cccc(C(=O)CC(N/N=C(\N)c2ccccn2)c2cccnc2)c1 | 17 strains | - | 160 µg/mL
O[C@H](c1cc(C(F)(F)F)nc2c(C(F)(F)F)cccc12)[C@@H]1CCCCN1 | MAC 101 | broth dilution / radiometric | 16 µg/mL
N/C(=N\NC(CC(=O)c1ccc(Cl)cc1)c1cccnc1)c1ccccn1 | 17 strains | - | 32 µg/mL
NC[C@H]1O[C@H](O[C@H]2[C@H](O)[C@@H](O[C@H]3O[C@H](CO)[C@@H](O)[C@H](N)[C@H]3O)[C@H](N)C[C@@H]2N)[C@H](O)[C@@H](O)[C@@H]1O | 100 strains | - | 3.95 µg/mL

The last 2 rows once more:

N/C(=N\NC(CC(=O)c1ccc(Cl)cc1)c1cccnc1)c1ccccn1 ; strain: 17 strains ; value: 32 µg/mL
NC[C@H]1O[C@H](O[C@H]2[C@H](O)[C@@H](O[C@H]3O[C@H](CO)[C@@H](O)[C@H](N)[C@H]3O)[C@H](N)C[C@@H]2N)[C@H](O)[C@@H](O)[C@@H]1O ; strain: 100 strains ; value: 3.95 µg/mL

Blank or dashed fields: not listed here. MIC50, MIC90 and the like: level of inhibition, or share of isolates inhibited.